Target: Recombinant heterodimeric HCV NS3/NS4A protease (strain 1a) (Hepatitis C virus genotype 1a, UniProt P27958)
Assay: Spectrophotometric assay for HCV serine protease inhibitory activity (chromogenic ester substrates)
Type: biochemical
Settings: read-out: Ki* Range; Table 3A; class symbols

The chains behind the UniProt entries cited, without tags or fusion partners. Residues count along the entry.
UniProt P27958, 1027-1657 limits assumed: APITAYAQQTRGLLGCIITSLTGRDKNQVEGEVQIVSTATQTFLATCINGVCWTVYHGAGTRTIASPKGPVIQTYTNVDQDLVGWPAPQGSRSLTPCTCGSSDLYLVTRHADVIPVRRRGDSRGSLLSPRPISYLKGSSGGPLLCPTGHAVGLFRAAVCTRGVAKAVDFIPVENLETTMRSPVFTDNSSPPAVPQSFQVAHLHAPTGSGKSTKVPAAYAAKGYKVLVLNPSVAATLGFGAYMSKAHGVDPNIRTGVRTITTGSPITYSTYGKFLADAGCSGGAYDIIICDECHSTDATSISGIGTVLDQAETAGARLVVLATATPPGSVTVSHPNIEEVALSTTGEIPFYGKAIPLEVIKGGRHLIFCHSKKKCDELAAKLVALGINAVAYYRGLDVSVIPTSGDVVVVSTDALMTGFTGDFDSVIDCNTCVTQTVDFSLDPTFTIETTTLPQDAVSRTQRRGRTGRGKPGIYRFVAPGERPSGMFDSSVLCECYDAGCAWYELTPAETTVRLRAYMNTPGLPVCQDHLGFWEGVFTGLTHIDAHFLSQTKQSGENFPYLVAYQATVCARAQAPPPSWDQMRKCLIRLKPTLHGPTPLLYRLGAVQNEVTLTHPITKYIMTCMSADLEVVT
UniProt P27958, 1658-1711 partner limits assumed: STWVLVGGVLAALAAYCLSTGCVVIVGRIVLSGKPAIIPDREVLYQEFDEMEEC

Compound | Ki [nM]
CCCC[C@H](NC(=O)[C@@H]1[C@@H]2[C@H](CN1C(=O)[C@@H](NC(=O)NC1([C@H]3CCCS3(=O)=O)CCCCC1)C(C)(C)C)C2(C)C)C(=O)C(=O)NCCC | < 75
C=CCNC(=O)C(=O)[C@H](CC1CC1)NC(=O)[C@@H]1[C@@H]2[C@H](CN1C(=O)[C@@H](NC(=O)NC1([C@@H]3CCCS3(=O)=O)CCCCC1)C1CCCCC1)C2(C)C | < 75

Reference: patent US8067379B2, “Sulfur compounds as inhibitors of hepatitis C virus NS3 serine protease” (Schering Corporation, priority 2004, dated 2011)
